Source: PMC10636207
Where a protein sequence is shown, tags need not be part of it.

Legend:
[1] = molecular target: T1, DcuR-His6 (UniProt P0AD02); experiment: competition with a labelled probe; settings: unlabeled DNA 0.5-5 uM against FAM-PLEE1; recombinant protein; residues 1-239; protein details: His6 (pET-28a); probe letters rebuilt from the primers and the genome
T1 sequence (looked up): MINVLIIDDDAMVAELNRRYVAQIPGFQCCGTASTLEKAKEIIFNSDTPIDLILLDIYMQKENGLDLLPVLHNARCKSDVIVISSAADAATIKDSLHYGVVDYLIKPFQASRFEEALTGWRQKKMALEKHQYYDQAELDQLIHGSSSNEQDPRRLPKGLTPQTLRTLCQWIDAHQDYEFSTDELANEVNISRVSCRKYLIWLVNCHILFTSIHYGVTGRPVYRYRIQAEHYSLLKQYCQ

[2] = molecular target: T1, DcuR-His6; experiment: EMSA; settings: 50 nM probe, 0-4 uM DcuR; recombinant protein; residues 1-239; protein details: His6 (pET-28a); label: 5'-FAM; probe letters rebuilt from the primers and the genome

Row | Sequence | binding result [1] | binding result [2]
1 | TCCTGGGGATTCACTCGCTTGCCGCCTTCCTGTAACTCGAATTAAGTAGAGTATAGTGAAACGGTTCAGCTTGGTTTTTATTCTGTTTTATTTGTTTATGCAATGAGATCTATCTTATAAAGAGAAACGCTTAACTAAATGGAAATGCAATTATTAAAGTCGTTTGTTAACGAGATGATTTTCTTCTATATCATTGATTTTAAATGGATTTTAAAAATATATGATTTTTTTGTTGACATTTAATGATAATGTATTTTACACATTAGAAAAAAGAGAATAATAACATTTTAAGGTGGTTGTTTGATGAAATAGATGTGTCCTAATTTGATAGATAAACGTTATCTCACATAATTTATATCATTTGATTAATTGTTGGTCCTTCCTGATAAGGTCGCTAATAGCTTAAAATATTAAAGCATGCGGAGATTATTTATTATGA (double strand) [PLEE1 unlabeled] | binds | 
2 | TCCTGGGGATTCACTCGCTTGCCGCCTTCCTGTAACTCGAATTAAGTAGAGTATAGTGAAACGGTTCAGCTTGGTTTTTATTCTGTTTTATTTGTTTATGCAATGAGATCTATCTTATAAAGAGAAACGCTTAACTAAATGGAAATGCAATTATTAAAGTCGTTTGTTAACGAGATGATTTTCTTCTATATCATTGATTTTAAATGGATTTTAAAAATATATGATTTTTTTGTTGACATTTAATGATAATGTATTTTACACATTAGAAAAAAGAGAATAATAACATTTTAAGGTGGTTGTTTGATGAAATAGATGTGTCCTAATTTGATAGATAAACGTTATCTCACATAATTTATATCATTTGATTAATTGTTGGTCCTTCCTGATAAGGTCGCTAATAGCTTAAAATATTAAAGCATGCGGAGATTATTTATTATGA (double strand) [PLEE1] |  | binds
